Assay results as given in patent publication US20060035242A1.

Molecular target: mouse pathogenic prion protein PrP^Sc (RML, in infected Balb-c mouse brain homogenate) (mouse) (UniProt P04925)

peptide reagent of SEQ ID NO:35 gave an ELISA A405 nm of 0.687 A405 nm.
